# Reference: PubChem BioAssay AID504761 (Drosophila RNAi Screening Center, 2011)
# Assay: 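Genome-wide fly cell screen for genes dengue virus requires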 (primary screen)
# Cell system: D.Mel-2 cells from Drosophila
# Knock-down reagent: long dsRNA against Drosophila genes
# Challenge: infection with dengue virus type 2; dose and infection time not stated
# Measured: 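Cells stained for dengue envelope protein and imaged; percent of infected cells per well on duplicate plates, ranked by infection, with stained nuclei counted for cell number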
# Direction: infection score: higher = more virus-infected cells; cell count: higher = more cells in the well
# Rule for the call: 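Very low infection ranking in both replicate wells (chance probability at most 0.065), then a retest showing infection dropped 1.5-fold or more at p below 0.05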
# Calls: active = confirmed: knock-down lowers infection; inactive = not picked or not confirmed
# In all, the deposit lists about 22,000 reagents; below is an unselected part of those that have a named target and a result. Over the whole deposit, 116 (0.52%) were called active. 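Calls depend on retest data that are not deposited; infection was ranked per plate without normalising between plates; the unit of the infection score is not given.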 Raw values are not corrected between plates. Unmarked entries are inactive. The numbers tell different reagents against one gene apart. A plus sign joins genes that one reagent is predicted to hit. The record does not give: the amount of reagent, the time to read-out.
"infection score, replicate 1","infection score, replicate 2","cell count, replicate 1","cell count, replicate 2",target gene,dsRNA no.
10.4,12.8,6285,6194,CG4666,1
4.37,10.3,6675,6465,CG8388,1
6.65,1.14,5879,5802,CG15446,1
2.58,0.72,6287,557,CG14238,1
9.34,19.3,2376,5699,CG14238,2
4.67,2.31,6815,6528,CG1463,1
10.5,17.7,3400,5202,CG2641,1
10.1,16,6422,6531,CG6675,1
2.75,1.5,6431,6276,CG2145,1
22.8,10.1,6375,6051,CG2145,2
5.3,7.05,5961,5744,clu,1
20.2,12.2,3353,5633,clu,2
3.06,2.64,6565,6017,Tcs5,1
10.2,2.49,6276,6515,Cpr60D,1
18.8,17.3,5821,6193,CG30031 + deltaTry + gammaTry,1
4.44,5.44,6236,6807,slim,1
0.38,2.1,6111,6146,Eig71Ei,1
,,374,292,Eig71Ei,2
11.2,28,4367,3683,CG11927,1
5.33,25.5,6225,5902,CG14340,1
3.66,,793,286,CG14420,1
1.54,5.49,5726,5576,CG14420,2
3.14,0.94,4304,4269,Cdc37,1
7.17,4.45,6412,6219,Cdc37,2
54.7,52.8,3670,3715,Polr2C,1
31,16.6,4048,4548,Polr2C,2
1.51,1.04,6469,6627,lsn,1
6.74,4.52,5608,5071,lsn,2
3.37,6.45,5544,5485,NAT1,1
3.23,4.77,5577,5182,NAT1,2
17.5,10.2,6467,6706,CG9346,1
1.83,5.09,5676,6175,Mlc-c,1
2.77,2.44,6144,6434,Mlc-c,2
2.38,4.13,6183,6289,CG9168,1
1.99,13.7,6180,6426,Acsx1R + Acsx1L,1
0.83,2.4,6632,6791,Pgk,1
4.85,2.27,5871,5678,Pgk,2
4.4,29.4,932,4764,Diap2,1
2.36,4.01,5667,5590,Diap2,2
5.51,9.51,6258,6488,CG5013,1
3.81,15.2,5833,5763,Roe1,1
1.19,5.61,5613,5399,Roe1,2
16.2,1.88,4695,6526,Dpm1,1
5.99,8.79,6193,6346,CG44014,1
17.7,10.3,5049,5111,CG44014,2
3.46,1.19,5991,6052,CG7550,1
4.05,2.4,6253,6214,TfIIEbeta,1
2.58,4.95,6712,6208,CG14507,1
11.1,4.99,4146,6428,CG14507,2
9.03,0.89,6680,6377,CG17598,1
12.1,20.7,6307,5623,Ns4,1
6.85,14.3,6514,6007,Ns4,2
4.2,5.01,4146,4633,CG10660,1
16.4,14,4152,2242,CG10660,2
4.85,2.77,6064,6425,ND-B16.6,1
8.28,8.11,6002,6572,ND-B16.6,2
16.5,15.4,5315,5840,ND-B16.6,3
22.2,13.8,4664,3113,ntc,1

Sorted by “cell count, replicate 1” (high to low): some entries from above.
"infection score, replicate 1","infection score, replicate 2","cell count, replicate 1","cell count, replicate 2",target gene,dsRNA no.
5.33,25.5,6225,5902,CG14340,1
1.54,5.49,5726,5576,CG14420,2
3.66,,793,286,CG14420,1
